Experimental data reported in patent publication EP4837634A2, “COMBINATION OF TWO ANTIVIRALS FOR TREATING HEPATITIS C” (dated 2026).

Legend:
[1] = tested on: replicon containing GT3a NS3 protease; assay: Resistant colony selection in replicon containing GT3a NS3 protease; conditions: concentrations ≥ 100-fold over its EC50 value
[2] = tested on: HCV genotype 1 NS3 resistance-associated variants in GT 1a (H77); assay: Replicon activity against NS3 resistance-associated variants, GT 1a; conditions: GT1a variants that conferred resistance to other HCV protease inhibitors
[3] = tested on: HCV genotype 1 NS3 resistance-associated variants in GT 1b (Con-1); assay: Replicon activity against NS3 resistance-associated variants, GT 1b; conditions: GT1b variants that conferred resistance to other HCV protease inhibitors
[4] = tested on: NS5A inhibitor and NS5B inhibitor resistance-associated variants in GT 1b; conditions: e.g. L28T, Y93H, S282T, C316Y, Y448H and S556G in GT 1b

`CC(C)(C)[C@@H]1NC(=O)O[C@@H]2CCC[C@H]2OC/C=C/C(F)(F)c2nc3ccccc3nc2O[C@@H]2C[C@@H](C(=O)N[C@]3(C(=O)NS(=O)(=O)C4(C)CC4)C[C@H]3C(F)F)N(C2)C1=O` was tested, and the colonies selected [1] was “very few colonies”, the “activity against common variants at NS3 amino acid positions 155 and 168” value [2] was “retained its activity” and the “activity against common variants at NS3 amino acid positions 155 and 168” value [3] was “retained its activity”. The “activity against NS5A inhibitor and NS5B inhibitor resistance-associated variants” value [4] was “potent activity”.
